Target: StxB-scFv UCHT1 lectibody (Shigella dysenteriae)
Assay: SEC

StxB-scFv UCHT1 lectibody
stoichiometry N: 2

From article PMC10378424, “A Shiga Toxin B-Subunit-Based Lectibody Boosts T Cell Cytotoxicity towards Gb3-Positive Cancer Cells” (2023)
